# Test results taken from patent US4767621A (priority 1982, dated 1988).
# Test system: human T lymphoblastoid cells of the CEM line bearing the antigen T-65
# Details: for potentiating effect (factor) on the cytotoxicity of immunotoxin anti-T-65: NH4+ 10 mM, monensin 50 nM, nigericin 10 nM, grisorixin 50 nM, lasalocide 1 μM
Substance,potentiating effect (factor) on the cytotoxicity of immunotoxin anti-T-65,"spontaneous cytotoxicity of the ionophore for the cells employed (monensin and grisorixin 50 nanomolar, nigericin 10 nanomolar, lasalocide 1 micromolar, ionophore alone)"
ammonium chloride,7000,–
grisorixin,27000,not spontaneously cytotoxic
